Test results as given in PMC10221320.
Positions of bridges follow the written chain, without caps; N, C: chain ends. No end group written: not given here.

Biological target: T1, human ASIC3 truncated by 20 C-terminal amino acid residues (hASIC3-Δ20) (Homo sapiens, UniProt Q9UHC3)
T1 sequence (Q9UHC3 1-511 limits assumed): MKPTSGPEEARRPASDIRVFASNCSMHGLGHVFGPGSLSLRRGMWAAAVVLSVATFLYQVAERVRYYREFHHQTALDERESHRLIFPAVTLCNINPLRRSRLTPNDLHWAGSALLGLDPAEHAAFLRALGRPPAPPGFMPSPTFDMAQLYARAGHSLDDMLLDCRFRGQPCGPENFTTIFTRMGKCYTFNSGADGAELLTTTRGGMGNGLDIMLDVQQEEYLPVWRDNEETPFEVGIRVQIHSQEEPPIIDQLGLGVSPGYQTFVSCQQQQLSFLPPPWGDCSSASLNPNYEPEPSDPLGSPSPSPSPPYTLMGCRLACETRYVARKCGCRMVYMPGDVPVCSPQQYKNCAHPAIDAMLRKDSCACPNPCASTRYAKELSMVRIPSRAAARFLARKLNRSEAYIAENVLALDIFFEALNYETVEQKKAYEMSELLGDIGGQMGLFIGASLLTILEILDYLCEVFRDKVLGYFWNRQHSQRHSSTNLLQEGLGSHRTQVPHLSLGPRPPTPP
Test: Two-electrode voltage clamp, hASIC3-Δ20 in Xenopus laevis oocytes

Sequence: GTPCDCYGYTGVYWFMLSRCPSGYGYNLSCHYFMGICCVKR (disulfide 4-37, 6-30, 20-38 (inferred)) [Hmg 1b-4]
- IC50: 14.1 ± 2.5 µM
- effect on the sustained current component (pH drop from 8.0 to 5.5): did not have any significant effect on the sustained component
- nH, Hill coefficient, inhibition of transient current (pH drop from 8.0 to 5.5, n = 5): 1.1 ± 0.2
